Experimental data: article PMC4270767 (PLoS ONE, 2014)

By UniProt entry, the sequences of proteins in these tests, tags left out. Residues count along the entry.
UniProt O53289, 165-409 limits assumed: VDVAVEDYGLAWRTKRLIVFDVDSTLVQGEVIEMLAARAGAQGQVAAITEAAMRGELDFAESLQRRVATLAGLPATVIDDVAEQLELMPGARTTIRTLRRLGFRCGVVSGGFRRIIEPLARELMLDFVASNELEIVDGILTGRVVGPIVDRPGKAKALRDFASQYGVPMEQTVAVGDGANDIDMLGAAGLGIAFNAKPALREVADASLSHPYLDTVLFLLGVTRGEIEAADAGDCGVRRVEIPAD

Key:
[1] = biological target: PSP domain of MtSerB2 (PSPD) (Mycobacterium tuberculosis, UniProt O53289); format: biochemical, M. tuberculosis
[2] = biological target: MtSerB2 (Mycobacterium tuberculosis, UniProt O53289); assay: Inhibition of MtSerB2 hydrolysis of L-phosphoserine (malachite green); format: biochemical, M. tuberculosis

Sodium Vanadate
IC50 [1]: 2240 ± 150 µM | IC50 ([2]; read-out: IC50): ~2500 µM | IC50 ([2]; read-out: IC50 (µM) SerB2): 2540 ± 198 µM

Where two headings read alike, the source gives them in different places.
